Values quoted from earlier work, collected in paper PMC7961048, “Hierarchized phosphotarget binding by the seven human 14-3-3 isoforms” (Nature Communications, 2021).

System: 14-3-3 isoforms
Conditions: Figure 4 panel e

B1: YWHAH (protein, UniProt Q04917 2-246, looked up)
14-3-3 protein eta: GDREQLLQRARLAEQAERYDDMASAMKAVTELNEPLSNEDRNLLSVAYKNVVGARRSSWRVISSIEQKTMADGNEKKLEKVKAYREKIEKELETVCNDVLSLLDKFLIKNCNDFQYESKVFYLKMKGDYYRYLAEVASGEKKNSVVEASEAAYKEAFEISKEQMQPTHPIRLGLALNFSVFYYEIQNAPEQACLLAKQAFDDAIAELDTLNEDSYKDSTLIMQLLRDNLTLWTSDQQDEEAGEGN
- number of interactions per isoform (number of 1433 isoforms 1): 46
- number of interactions per isoform (number of 1433 isoforms 2): 67
- number of interactions per isoform (number of 1433 isoforms 3): 63
- number of interactions per isoform (number of 1433 isoforms 4): 68
- number of interactions per isoform (number of 1433 isoforms 5): 114
- number of interactions per isoform (number of 1433 isoforms 6): 26
- number of interactions per isoform (number of 1433 isoforms 7): 14

Like-named read-outs stand apart in the source and are kept apart here.
